PubChem BioAssay AID1259414 | Drosophila RNAi Screening Center, 2018
The screen tested about 24,000 reagents; this is an unselected part of those that have a named target and a result. In the full data, about 1,210 (5%) got an active call. 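Inactive calls also include excluded dsRNAs with several or no targets, genes unexpressed in JW18, and well A1, regardless of score.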 The numbers tell different reagents against one gene apart. Names joined by + are all predicted targets of the reagent. Reagent sequences are not shown.

Screen: 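Genome-wide screen for host control of endosymbiont load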 (primary screen)
Cell system: Drosophila JW18 cells infected with Wolbachia
Reagents: long dsRNA against Drosophila genes, 0.25 µg dsRNA per well of a 384-well plate
Duration: 5 days
Conditions: cells persistently infected with Wolbachia before knock-down; no added drug
Measurement: 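Automated imaging of bacterial rRNA staining divided by host cell count, reported as plate-normalised robust z-score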
Direction: Wolbachia per cell robust z: higher = more Wolbachia per host cell than the plate typical
Active means: 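Hit when robust z is 1.5 or more, or -1.5 or less, in at least two of three replicates; excludes dsRNAs with several or no targets, genes not expressed in JW18 and well A1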

| target | reagent no. | Wolbachia per cell robust z, rep 1 | Wolbachia per cell robust z, rep 2 | Wolbachia per cell robust z, rep 3 | activity call |
| --- | --- | --- | --- | --- | --- |
| CG14518 | 1 | -4.7 | -0.878 | -6.14 | inactive |
| CG14518 | 2 | 0.408 | 0.188 | -0.382 | inactive |
| Crtp (Caldesmon-related protein) | 1 | 1.07 | 0.406 | 1.62 | inactive |
| Crtp (Caldesmon-related protein) | 2 | 0.395 | 1.09 | -0.424 | inactive |
| Echs1 (Enoyl-CoA hydratase, short chain 1) | 1 | -0.862 | -0.219 | -1.45 | inactive |
| Cyp6d4 (Cytochrome P450 6d4) | 1 | 0.685 | 2.1 | 0.886 | inactive |
| Cyp6d4 (Cytochrome P450 6d4) | 2 | -0.0787 | 0.194 | 0.219 | inactive |
| CG34221 | 1 | 0.905 | 0.455 | 0.184 | inactive |
| CG34221 | 2 | -0.275 | 0.46 | -0.455 | inactive |
| vih (vihar) | 1 | 1.45 | 0.511 | 2.54 | inactive |
| vih (vihar) | 2 | 0.853 | 1.09 | 2.27 | inactive |
| CG13842 | 1 | 0.416 | 0.346 | 1.79 | inactive |

An excerpt from above, reduced to “Wolbachia per cell robust z, rep 1”.
Echs1 (Enoyl-CoA hydratase, short chain 1)	-0.862
Cyp6d4 (Cytochrome P450 6d4) #1	0.685

Further entries follow:
| target | reagent no. | Wolbachia per cell robust z, rep 1 | Wolbachia per cell robust z, rep 2 | Wolbachia per cell robust z, rep 3 | activity call |
| --- | --- | --- | --- | --- | --- |
| CG10345 | 1 | -1.58 | -0.862 | -4.63 | inactive |
| CG14302 | 1 | 0.913 | 0.931 | 0.677 | inactive |
| msps (mini spindles) | 1 | 2.18 | 0.469 | 0.319 | inactive |
| CG32281 | 1 | -1.01 | 0.655 | 1.17 | inactive |
| SLC5A11 (Sodium/solute co-transporter-like 5A11) | 1 | 0.992 | 0.626 | 0.038 | inactive |
| CG33061 | 1 | -0.417 | -0.732 | -0.25 | inactive |
| CG33061 | 2 | -1.04 | -2.62 | -3.68 | inactive |
| CG13862 | 1 | -0.778 | -0.391 | -0.755 | inactive |
| MEP-1 + CG42245 | 1 | -0.647 | -0.749 | 0.0423 | inactive |
| Gr39b (Gustatory receptor 39b) | 1 | 0.733 | -0.305 | -0.87 | inactive |
| Gr39b (Gustatory receptor 39b) | 2 | 0.319 | -1.26 | -1.21 | inactive |
| SP1173 | 1 | 0.747 | -1.21 | 0.183 | inactive |
| CG34409 | 1 | -4.92 | -0.202 | 0.108 | inactive |
| CG34409 | 2 | 0.647 | 0.892 | -0.235 | inactive |
| RPA3 (Replication protein A3) | 1 | -5.62 | -0.106 | 0.324 | inactive |
| FASN3 (Fatty acid synthase 3) | 1 | -0.0224 | 0.94 | 1.01 | inactive |
